PubChem BioAssay AID1224833 | University of Georgia – 2016

Aim: 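Host factors restraining rotavirus as candidate antiviral genes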 (primary screen)
Cell system: monkey MA104 kidney cells
Knock-down reagent: siRNA pool against human genes, 50 nM
Duration: 48 h knock-down before infection; read 24 h after infection
Challenge: infection with rotavirus strain RV3 two days after transfection; infectious dose for this stage not given
Read-out: 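z-score of rotavirus antigen signal per well, from a fluorescent immunoassay, relative to non-targeting control wells on the same plate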
Direction: z-score vs non-targeting control: higher = more rotavirus replication than with non-targeting control
Active means: In these data the active calls have z-score vs non-targeting control at about -1 or lower, or at about 1 or higher
Calls: active = z-score beyond 1 either way; inactive = z-score within 1 of zero
Here is one part, drawn at random, of about 12,000 deposited reagents. Over the whole deposit, about 5,600 (46%) got an active call. 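Active calls cover z-scores past 1 in both directions, so they include lowered as well as raised rotavirus replication.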 Entries without a mark were called inactive.

no.	Gene	z-score vs non-targeting control
1	SYT8	0.188
2	MEI1	-0.91
3	ZNF600	-0.892
4	KLRC3	1.66 (active)
5	ARHGEF26	1.78 (active)
6	NT5DC2	0.516
7	C2orf66	0.732
8	THAP6	-0.598
9	FYB1	-0.753
10	RAB11B	-3 (active)
11	PIP4P1	-0.437
12	METTL21A	-0.801
13	WASF3	-1.87 (active)
14	DNTTIP1	-0.675
15	TMC6	0.556
16	PCDHGA7	1.37 (active)
17	OR6N2	-1.13 (active)
18	SYNE3	0.939
19	TRAPPC1	-0.712
20	PSAP	-0.086
21	COL1A1	2.35 (active)
22	EXOC4	-0.716
23	NFIL3	2.47 (active)
24	RALB	0.733
25	CLINT1	-1.03 (active)
26	MSX2	-2.42 (active)
27	HSP90AA1	-1.35 (active)
28	CPSF2	0.148
29	APOC2	-1.79 (active)
30	CCDC18	0.491
31	ZNF441	0.352
32	IGFBP5	-0.085
33	YIPF5	-1.73 (active)
34	FOXA1	-1.23 (active)
35	ENTREP1	-0.344
36	OR10J1	-0.567
37	DNLZ	0.889
38	DAPL1	-0.808

6 entries from above, arranged by “z-score vs non-targeting control”, ascending.
Gene	z-score vs non-targeting control
CLINT1	-1.03 (active)
EXOC4	-0.716
PSAP	-0.086
RALB	0.733
COL1A1	2.35 (active)
NFIL3	2.47 (active)

The listing continues.
no.	Gene	z-score vs non-targeting control
39	EFTUD2	0.983
40	UTRN	-0.735
41	NIF3L1	1.38 (active)
42	PTBP2	-0.062
43	TOMM20L	0.941
44	CRYZL1	-2.65 (active)
45	SYT13	-1.09 (active)
46	CMTM6	-1.4 (active)
47	SP110	0.116
48	KATNIP	-1.75 (active)
49	NUS1	-0.209
50	DUSP26	-1.08 (active)
51	LRRC27	-0.445
52	IGSF10	-0.042
53	C1orf216	-0.548
54	LRRC41	-1.5 (active)
55	TREH	-1.48 (active)
56	INTS5	-0.0785
57	CASP9	0.624
58	CCER1	0.759
59	AMT	-2.14 (active)
60	VPS4B	0.798
61	GP6	0.978
62	PARPBP	0.998
63	OPTN	-1.13 (active)
64	CLDN23	-0.195
65	PLEKHH2	1.37 (active)
66	GPR146	0.984
67	SCFD2	-1.45 (active)
68	CLSTN3	0.0059
69	WBP4	-1.83 (active)
70	ING3	-1.81 (active)
71	BNIP3	-0.914
72	SLC25A35	-1.14 (active)
73	SNX25	-1.36 (active)
74	VPS35	-1.08 (active)
75	BHLHE22	0.647
